The supplement of paper PMC12637763
Numbering of substitutions follows the chain as printed. The list shows a part of the results. Env chains of viruses from a treatment-interruption trial, translated from the printed DNA. IC50 / IC80 of two broadly neutralizing antibodies; lower = more sensitive virus; >50 µg/ml means not reached and <0.001 µg/ml is below the lowest dose. No active / inactive call.

B1: HIV-1 Env, rebound clone, placebo arm (protein)
chain: MIVMGMKRNWQQWWRGGILLLGMLMMICSAEDNAWVTVYYGVPVWREANVTLFCASDAKAYDTEVHNVWATHACVPTDPSPQEIKLENVTENFNMWKNDMVEQMHEDIISLWDQSLKPCVKLTPLCVTLNCTDYLGSNATNSTSGNNGTISNNITIEDSEKGEIKNCSFNVTTGIRDKMNKEYALLYKTDLVSIDNDNTSYRLISCNTSVITQACPKVTFEPIPIHYCAPAGFAILKCKDKKFNGTGPCKNVSTVQCTHGIRPVVSTQLLLNGSLAEEDVVIRSANFTNNAKVIIVQLNETVEINCTRPNNNTRKGINIGPGRAWYTIKDIVGDIRQAHCNISRPKWNRALEKIVEKLREQFGVNKTIVFNQSSGGDPEIVMHHFNCQGEFFYCNTTGLFNTRWNGTWNDTWENYTAGQGNNEPITLPCRIRQIVNLWQEVGKAMYAPPIRGYINCSSNITGLLLVRDGGIKNSTNDTDNNTEIFRPGGGDMRDNWRSELYKYKVVQVEPVGIAPTRAKRRVVQREKRAVTLGAMFLGFLGTAGSTMGAASLTLTVQVRQLLSGIVQQQNNLLRAIEAQQHLLQLTVWGIKQLQARVLAVERYLRDQQILGIWGCSGKLICTTAVPWNTSWSNKSVDHIWGNMTWMQWEREIENYTGVIYKLLEESQNQQEKNEQDLLELDKWASLWTWFDITHWLWYIRLFIMIVGGLIGLRIVFAVFSLVNRVRQGYSPLSFQTHLPAPRGPDRPEGIEEEGGEPDRGRSVRLVNGFLALIWDDLRSLCLFSYHRLRDLLLIVTRIVELLGRRGWEAIKYLWNLLQYWSQELKNSAVSLLNAFAIAVAEGTDRVIEIIQGAFRAIIHIPRRIRQGLERSLL
B2: HIV-1 Env, rebound clone, placebo arm (protein)
chain: B1 chain with E499K, M535V
B3: HIV-1 Env, rebound clone, placebo arm (protein)
chain: MIVMGMKRNWQQWWRGGILLLGMLMMICSAEDNAWVTVYYGVPVWREANVTLFCASDAKAYDTEVHNVWATHACVPTDPSPQEIKLENVTENFNMWKNDMVEQMHEDIISLWDQSLKPCVKLTPLCVTLNCTDYLGSNATNSTSGNNGTISNNITIEDSEKGEIKNCSFNVTTGIRDKMNKEYALLYKTDLVSIDNDNTSYRLISCNTSVITQACPKVTFEPIPIHYCAPAGFAILKCKDKKFNGTGPCKNVSTVQCTHGIRPVVSTQLLLNGSLAEEDVVIRSANFTNNAKVIIVQLNETVEINCTRPNNNTRKGINIGPGRAWYTIKDIVGDIRQAHCNISRPKWNRALEKIVEKLREQFGVNKTIVFNQSSGGDPEIVMHHFNCQGEFFYCNTTGLFNTRWNGTWNDTAGQGNNETITLPCRIRQIVNLWQEVGKAMYAPPIRGYINCSSNITGLLLVRDGGIKNSTNDTDNNTEIFRPGGGDMRDNWRSELYKYKVVQVEPVGIAPTRAKRRVVQREKRAVTLGAMFLGFLGTAGSTMGAASLTLTVQVRQLLSGIVQQQNNLLRAIEAQQHLLQLTVWGIKQLQARVLAVERYLRDQQILGIWGCSGKLICTTAVPWNTSWSNKSVDHIWGNMTWMQWEREIENYTGVIYKLLEESQNQQEKNEQDLLELDKWASLWTWFDITHWLWYIRLFIMIVGGLIGLRIVFAVFSLVNRVRQGYSPLSFQTHLPAPRGPDRPEGIEEEGGEPDRGRSVRLVNGFLALIWDDLRSLCLFSYHRLRDLLLIVTRIVELLGRRGWEAIKYLWNLLQYWSQELKNSAVSLLNAFAIAVAEGTDRVIEIIQGAFRAIIHIPRRIRQGLERSLL
B4: HIV-1 Env, rebound clone, placebo arm (protein)
chain: MIVMGMKRNWQQWWRGGILLLGMLMMICSAEDNAWVTVYYGVPVWREANVTLFCASDAKAYDTEVHNVWATHACVPTDPSPQEIKLENVTENFNMWKNNMVEQMHEDIISLWDQSLKPCVKLTPLCVTLNCTDYLGSNATNSTSGNNGTISNNITIEDSEKGEIKNCSFNVTTGIRDKMNKEYALLYKTDLVSIDNDNTSYRLISCNTSVITQACPKVTFEPIPIHYCAPAGFAILKCKDKKFNGTGPCKNVSTVQCTHGIRPVVSTQLLLNGSLAEEDVVIRSANFTNNAKVIIVQLNETVEINCTRPNNNTRKGINIGPGRAWYTIKDIVGDIRQAHCNISRPKWNRALEKIVEKLREQFGVNKTIVFNQSSGGDPEIVMHHFNCQGEFFYCNTTGLFNTRWNDTWENYTAGQGNNETITLPCRIRQIVNLWQEVGKAMYAPPIRGYINCSSNITGLLLVRDGGIKNSTNDTDNNTEIFRPGGGDMRDNWRSELYKYKVVQVEPVGIAPTRAKRRVVQREKRAVTLGAMFLGFLGTAGSTMGAASLTLTVQVRQLLSGIVQQQNNLLRAIEAQQHLLQLTVWGIKQLQARVLAVERYLRDQQILGIWGCSGKLICTTAVPWNTSWSNKSVDHIWGNMTWMQWEREIENYTGVIYKLLEESQNQQEKNEQDLLELDKWASLWTWFDITHWLWYIRLFIMIVGGLIGLRIVFAVFSLVNRVRQGYSPLSFQTHLPAPRGPDRPEGIEEEGGEPDRGRSVRLVNGFLALIWDDLRSLCLFSYHRLRDLLLIVTRIVELLGRRGWEAIKYLWNLLQYWSQELKNSAVSLLNAFAIAVAEGTDRVIEIIQGAFRAIIHIPRRIRQGLERSLL
B5: HIV-1 Env, rebound clone, placebo arm (protein)
chain: B1 chain with D99N, G406D, W408R, P424T
B6: HIV-1 Env, rebound clone, placebo arm (protein)
chain: B4 chain with M531V

molecular target: antibody 10-1074; test: neutralization IC50; higher = virus less sensitive to the antibody
Description: (§1)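 Pseudovirus bearing the Env chain mixed with antibody, from 50 µg/ml in fivefold dilutions, on TZM-bl reporter cells, in duplicate.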

First: B1
Second: B2
The “neutralization IC50” value of the first is 4-fold higher: 0.156 µg/mL for the first, 0.039 µg/mL for the second.

Going from B3 to B4, the “neutralization IC50” value rises from 0.218 µg/mL to 0.356 µg/mL (1.6-fold).

First: B5
Second: B6
The “neutralization IC50” value of the first is 2.4-fold lower: 0.162 µg/mL for the first, 0.387 µg/mL for the second.

molecular target: antibody 3BNC117; test: as above
Description: as §1

Compared with B1, B2 is 5.9-fold lower in “neutralization IC50” value: 0.322 µg/mL for the first, 0.055 µg/mL for the second.

Compared with B3, B4 is 1.5-fold higher in “neutralization IC50” value: 0.259 µg/mL for the first, 0.39 µg/mL for the second.

First: B5
Second: B6
The “neutralization IC50” value of the first is 2.5-fold lower: 0.198 µg/mL for the first, 0.499 µg/mL for the second.

molecular target: antibody 10-1074; test: neutralization IC80; higher = virus less sensitive to the antibody
Description: as §1

Going from B1 to B2, the “neutralization IC80” value falls from 0.452 µg/mL to 0.172 µg/mL (2.6-fold).

Going from B3 to B4, the “neutralization IC80” value rises from 0.641 µg/mL to 1.28 µg/mL (2-fold).

Compared with B5, B6 is 2.7-fold higher in “neutralization IC80” value: 0.496 µg/mL for the first, 1.35 µg/mL for the second.

molecular target: antibody 3BNC117; test: as above
Description: as §1

Going from B1 to B2, the “neutralization IC80” value falls from 1.1 µg/mL to 0.26 µg/mL (4.2-fold).

B3 and B4 are within 1.5-fold of each other in “neutralization IC80” value: 0.909 µg/mL for the first, 1.33 µg/mL for the second.

Compared with B5, B6 is 2.3-fold higher in “neutralization IC80” value: 0.725 µg/mL for the first, 1.7 µg/mL for the second.
